In patent US20070179135A1 (priority 2006, published 2007):

Each compound was assayed on HIV-1. Conditions: monocyte/macrophage assay with HIV-1 (p24).
CCCCCc1cc(O)c2c(c1)OC(C)(C)C1CCC(C(=O)O)=CC21 (stereo not drawn) was tested, and the TI was 9.8. C=C(C)[C@@H]1CCC(C)=C[C@H]1c1c(O)cc(CCCCC)cc1O [Cannabidiol, reference compound] was tested, and the TI was 2.8. CCCCCc1cc(O)c2c(c1)OC(C)(C)c1ccc(C)cc1-2 [Cannabinol] showed a TI of 1.7. In the case of Nc1ccn([C@H]2CC[C@@H](CO)O2)c(=O)n1 [DdC, reference compound], the TI is reported as >3,571. With CCO [EtOH] the TI was over 1.67. CCCCCc1cc(O)cc(O)c1 [Olivitol] showed a TI of 1.119.
